{"sequences": {"note": "By UniProt entry, the sequences of proteins in these tests, tags left out. Residues count along the entry.", "UniProt P22303, 32-614 limits assumed": "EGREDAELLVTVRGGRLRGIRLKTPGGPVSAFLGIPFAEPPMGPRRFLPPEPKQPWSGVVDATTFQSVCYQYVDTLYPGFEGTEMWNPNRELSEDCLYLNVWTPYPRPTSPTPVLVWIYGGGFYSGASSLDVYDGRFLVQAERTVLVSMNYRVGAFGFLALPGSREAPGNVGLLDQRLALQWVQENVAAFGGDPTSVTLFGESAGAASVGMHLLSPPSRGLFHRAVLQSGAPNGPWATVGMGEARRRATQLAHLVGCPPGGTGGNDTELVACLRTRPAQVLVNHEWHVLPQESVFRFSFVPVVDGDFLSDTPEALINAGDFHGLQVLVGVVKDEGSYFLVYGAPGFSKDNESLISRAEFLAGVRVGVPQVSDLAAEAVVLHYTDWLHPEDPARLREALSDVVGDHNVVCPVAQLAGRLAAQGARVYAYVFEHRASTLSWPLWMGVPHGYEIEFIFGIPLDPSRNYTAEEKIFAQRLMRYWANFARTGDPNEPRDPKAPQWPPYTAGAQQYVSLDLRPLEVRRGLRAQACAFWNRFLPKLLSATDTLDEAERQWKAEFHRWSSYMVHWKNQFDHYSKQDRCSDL"}, "source": "patent US9556471B2", "about": "“Enzyme containing liquid and delivery system for detection of analytes on surfaces” (dated 2017)", "key": {"AChE": {"biological_target": "AChE (Homo sapiens, UniProt P22303)", "test": "AChE/urease liquid with horseradish peroxidase and luminol, organophosphate detection via light emission", "details": "paraoxon 1 mg/mL on surface in the dark; hydrogen peroxide 3% w/v sprayed after about 5 minutes"}, "[1]": {"biological_target": "AChE (acetyl cholinesterase) (Homo sapiens, UniProt P22303)", "test": "Sprayed AChE/urease enzyme containing liquid, organophosphate detection via visible color change", "details": "surface contaminated with 1 mg paraoxon per Petri dish; cresol red indicator"}}}
{"smiles": "CCOP(=O)(OCC)Oc1ccc([N+](=O)[O-])cc1", "values": [{"measurement": "light emission after hydrogen peroxide spray", "setting": "AChE", "value": "Blue light emitted"}, {"measurement": "time for sprayed sensor to turn from yellow to red (inhibition of AChE)", "setting": "[1]", "value": "≤ 5", "unit": "min"}]}
